# Strings that start with PEPTIDE1 are HELM notation: dots part the residues, brackets hold end groups and non-standard residues.
# Assay: general procedure: Fmoc solid-phase peptide synthesis; MeDbz-Gly-ChemMatrix resin; Cl-Trt polystyrene resin preloaded with Fmoc-Phe-OH (0.69 mmol/g) for peptide 8; HBTU, i-Pr2NEt
# Details: whole synthesis
Substance,final HPLC purity (215 nm) [%],final HPLC purity (UPLC 215 nm) [%]
S. simulans AIP- II/III 5- mer N-Ac,>95,–
"PEPTIDE1{K.Y.Y.P.C.W.G.Y.F}$PEPTIDE1,PEPTIDE1,5:R3-9:R2$$$V2.0",–,>95
S. simulans AIP- II/III 5- mer N-Me2,>95,–
